System: Hz formation in cultured P. falciparum

**Q.** With “5-(tert-Butyl)-N,N-di(pyridin-3-yl)isophthalamide [Compound 15i]” as the substance, how does the “decrease in Hz (ΔHz)” value (at 2.5 times the IC50, 32 h, relative to control) read?
**A.** Its value is ~ 40 fg/cell.

**Q.** For “5-(tert-Butyl)-N,N-diphenylisophthalamide [Compound 15j]”, which “change in free heme or Hz levels with increasing concentration” value (negative control compound) is on record?
**A.** The value was “No significant change”.

**Q.** With “N,N-bis(4-((Dimethylamino)methyl)phenyl)-5-nitroisophthalamide [Compound 17]” as the substance, how does the non-Hz heme (at the IC50 of 17, control 7%) read?
**A.** Its non-Hz heme is 41%.
